From PubChem BioAssay AID651820 (National Center for Advancing Translational Sciences (NCATS), 2012) come the findings set out here.

Structures are written as SMILES. This is a selection; strong and weak results do not stand in their true shares. Records with an inconclusive call do not appear. Entries that show only a call come without a potency. Active and inactive are the calls of the source. Calls follow the shape of the dose curve; as a rule, active = well fitted inhibition curve with a large enough effect; inconclusive = small, poorly fitted or top-dose-only effect, or another doubt; inactive = no such curve, though single readings can be large or run the other way.

This assay is described as follows: qHTS Assay for Inhibitors of Hepatitis C Virus (HCV). The note with it: Huh7.5.1 HCVcc-Cre (HCVcc is cell-culture hepatitis C virus) infection, luciferase reporter, 44 h; series mostly up to 41.8 µM. An excerpt:
Hepatitis C virus (HCV) infects about 200 million people in the world. Many infected people progress to chronic liver disease including cirrhosis with a risk of developing liver cancer. To date, there is no effective vaccine for hepatitis C. Current therapy based on interferon is only effective in about half of the patients and is associated with significant adverse effects. The fraction of people with HCV who can complete a successful treatment is estimated to be no more than 10 percent. Recent development of direct-acting antivirals against HCV, such as protease and polymerase inhibitors, is promising but still requires combination with peginterferon and ribavirin for maximal efficacy. In addition, these agents are associated with high rate of resistance and many have significant side effects. Due to the lack of a culture system for infectious HCV, the search for new HCV drugs has been greatly hampered. […] High-throughput screening (HTS) with an infectious HCV system would cover the complete spectrum of potentially druggable targets in all stages of HCV lifecycle, and would have more biological relevance than other cell-based assays. Moreover, targeting several key processes in the viral life cycle may not only increase antiviral efficacy; more importantly, it may also reduce the capacity of the virus to develop resistance to the compound. The goal of this project is to identify novel HCV inhibitors as new therapies for hepatitis C, using a highly sensitive and specific assay platform which is based on a HCV infectious cell culture system established in the laboratory and adapted for high-throughput HCV drug screen. NIH Chemical Genomics Center [NCGC] NIH Molecular Libraries Probe Centers Network [MLPCN] MLPCN Grant: MH095511 Assay Submitter (PI): Jake Liang, NIDDK
The assay will start with plating 1,000 cells/well in 3 µL volume and culture for 4 h. Then 23 nL of compounds from the library collection will be added to each well, followed by adding 2.5 µL of HCVcc-Cre virus (~ 0.5 moi) and further cultured for 44 h before the luciferase assay. A volume of 4.5 µL luciferase substrates will be added to each well and the plates will be incubated at room temperature for 15 min. and then read for 15 sec. for the luciferase activity
(Quantitative high-throughput screening tests each substance at several concentrations.)
As for `CCCOP(=S)(Nc1nc(N)cc(=O)[nH]1)OCCC`, the Potency entry is “inactive”.

On to `Nc1cccc2c([As](=O)(O)O)cccc12`, for which the Potency result was “inactive”.

Turning to `COc1cc(C2NCCC3(OCCO3)C2(C)C)cc(OC)c1OC` (stereo unspecified), the Potency entry was “inactive”.

As for `CCOP(=O)(Nc1cccc2ccccc12)OCC`, the Potency entry was “inactive”.

As to `O=[As](O)(O)c1cccnc1`, the Potency entry was “inactive”.

Turning to `COc1cc(C(=O)NCC2(N3CCOCC3)CCCCC2)cc(Cl)c1OC(C)C`, the Potency entry was “inactive”.

Take `CS(=O)(=O)c1ccc(Cl)c(NC(=O)COC(=O)C(O)(c2ccccc2)c2ccccc2)c1`: the Potency entry is “inactive”.

As for `O=C(OC1CN2CCC1CC2)c1ccc(Cl)cc1` (stereo unspecified), the Potency entry was “inactive”.

With `Cc1cccc(OCC(=O)OC2CN3CCC2CC3)c1` (stereo unspecified), the Potency entry was “inactive”.

Regarding `O=[As](O)(c1cccc(O)c1)c1cccc(O)c1`, the Potency result is “inactive”.

With `NC(=O)Nc1ccc([As](=O)(O)O)cc1`, the Potency entry is “inactive”.

As to `O=[N+]([O-])c1ccc2c(c1)nnn2O`, the Potency result is “inactive”.

As for `CN(C)C(=O)c1cc([N+](=O)[O-])cc2c1-c1c(cc([N+](=O)[O-])cc1[N+](=O)[O-])C2=O`, the Potency was active: 11.2 µM.

As to `N#CCCN(C(=O)COC(=O)C(O)(c1ccccc1)c1ccccc1)c1ccc(F)cc1`, the Potency entry was “inactive”.

Turning to `CCOP1(=S)c2c(C)nn(CCC#N)c2N=C(c2ccc(F)cc2)N1C` (stereo unspecified), the Potency result was “inactive”.

In the case of `CS(=O)(=O)c1cc([N+](=O)[O-])c2no[n+]([O-])c2c1`, the Potency result is “inactive”.

Regarding `CCOP1(=S)c2c(C)nn(CCC#N)c2N=C(c2ccccc2F)N1C` (stereo unspecified), the Potency entry is “inactive”.

With `O=P(Nc1nccs1)(Oc1ccccc1)Oc1ccccc1`, the Potency result was “inactive”.

On to `Nc1ccccc1[As](=O)(O)c1ccccc1`, for which the Potency entry was “inactive”.

Turning to `O=C(O)COc1ccc([As](=O)(O)O)cc1[N+](=O)[O-]`, the Potency entry was “inactive”.

For `O=P1(Nc2ncccn2)COc2ccccc2OC1`, the Potency entry is “inactive”.

On to `Cc1ccc(OCC(=O)OC2CN3CCC2CC3)cc1` (stereo unspecified), for which the Potency result was “inactive”.

Regarding `O=[As](O)(c1cccs1)c1cccs1`, the Potency result was “inactive”.

On to `O=P1(Nc2ccc(Br)cn2)COc2ccccc2OC1`, for which the Potency entry was “inactive”.

Take `NS(=O)(=O)c1cccc(NC(=O)COC(=O)C(O)(c2ccccc2)c2ccccc2)c1`: the Potency result is “inactive”.

In the case of `Nc1cccc([As](=O)(O)c2ccccc2)c1`, the Potency entry was “inactive”.

For the compound `Cc1nn(-c2ccccc2)c2c1P(=O)(N1CCOCC1)N(C)C(c1ccccc1)=N2` (stereo unspecified), the Potency entry is “inactive”.

For `CC1CCC(C(C)C)C(OP(=O)(Nc2ccccn2)c2ccccc2)C1` (stereo unspecified), the Potency entry was “inactive”.

As for `Cc1ccc(C(=O)OC2CN3CCC2CC3)cc1` (stereo unspecified), the Potency result was “inactive”.

As for `O=C(/C=C/c1ccccc1)OC1CN2CCC1CC2` (stereo unspecified), the Potency entry was “inactive”.

As for `CCCC1OP(=O)(Nc2ccccc2)OCC1CC` (stereo unspecified), the Potency result is “inactive”.

As to `CN(C)C1(CNC(=O)c2ccc(S(C)(=O)=O)cc2)CCCCC1`, the Potency result was “inactive”.

Take `CC1(CBr)Cn2c(nc3ccccc3c2=O)S1` (stereo unspecified): the Potency result was “inactive”.

On to `CC(C)/C=N\N=C(\N)N[N+](=O)[O-]`, for which the Potency result is “inactive”.

Consider `CN(C(=O)Cc1ccc(Cl)c(Cl)c1)[C@@H]1CCCC[C@H]1N1CCCC1`, for which the Potency entry is “inactive”.

As for `CCOP(=O)(Nc1ccc(C)cn1)OCC`, the Potency entry is “inactive”.

On to `CN(CCCl)Cc1cc(Cl)c(NC2=NCCN2)c(Cl)c1`, for which the Potency entry is “inactive”.

On to `O=P1(Nc2ccccn2)COc2ccccc2OC1`, for which the Potency result was “inactive”.

Take `CCOP(=O)(NC(=NC(C)c1ccccc1)NC(C)c1ccccc1)OCC` (stereo unspecified): the Potency entry is “inactive”.

As for `Clc1n[nH]nc1-c1nn[nH][15n]1`, the Potency entry was “inactive”.

Take `CC(C)(C)C(=O)NC(Sc1ncccn1)C(Cl)(Cl)Cl` (stereo unspecified): the Potency result was “inactive”.

For `CCOC(=O)c1ccc(NC(=O)C(C)(CCl)SC)cc1` (stereo unspecified), the Potency entry is “inactive”.

For `O=C(OC1CN2CCC1CC2)c1cccc([N+](=O)[O-])c1` (stereo unspecified), the Potency entry was “inactive”.

As for `CCC(C)N(CC(C)C)C(=S)SC(NC(C)=O)C(Cl)(Cl)Cl` (stereo unspecified), the Potency entry was “inactive”.

As for `COP1(=S)c2c(C)nn(CCC#N)c2N=C(c2ccc(F)cc2)N1C` (stereo unspecified), the Potency result was “inactive”.

As to `O=C(COc1ccccc1)OC1CN2CCC1CC2` (stereo unspecified), the Potency result is “inactive”.

As to `O=C(Nc1ccncc1[N+](=O)[O-])c1ccc([N+](=O)[O-])cc1[N+](=O)[O-]`, the Potency entry was “inactive”.

Turning to `CCOC(=O)Nc1cccc([As](=O)(O)O)c1`, the Potency result was “inactive”.

For the compound `O=[N+]([O-])c1ccc(Nc2ccc(Oc3ccc([N+](=O)[O-])cc3[N+](=O)[O-])cc2)c([N+](=O)[O-])c1`, the Potency entry is “inactive”.

As for `O=P(Nc1ccccn1)(c1cccc2ccccc12)c1cccc2ccccc12`, the Potency entry is “inactive”.

In the case of `Cc1cc(SC(NC=O)C(Cl)(Cl)Cl)ncn1` (stereo unspecified), the Potency result is “inactive”.

For the compound `CC1CCNP(=O)(N(CCCl)CCCl)O1` (stereo unspecified), the Potency entry was “inactive”.

In the case of `CCOC(=O)Nc1ccc([As](=O)(O)O)c(O)c1`, the Potency entry was “inactive”.

Regarding `Cc1cc(SC(NC(=O)c2ccccc2)C(Cl)(Cl)Cl)nc(C(C)C)n1` (stereo unspecified), the Potency entry is “inactive”.

Regarding `COC(=O)C1(C)COP(=O)(N2CCCCCC2)OC1` (stereo unspecified), the Potency result was “inactive”.

Regarding `ClCCSc1nnc(-c2cccnc2)o1`, the Potency entry was “inactive”.

Regarding `CC(C)NC(=O)NP(=O)(Oc1ccccc1)Oc1ccccc1`, the Potency result is “inactive”.

With `CCN(CC)C(=S)SC(NC=O)C(Cl)(Cl)Cl` (stereo unspecified), the Potency result is “inactive”.

As to `O=C(OC1CN2CCC1CC2)c1cccc2[nH]cnc12` (stereo unspecified), the Potency entry is “inactive”.

For `O=[N+]([O-])c1cc([N+](=O)[O-])c(-c2ccn[nH]2)s1`, the Potency was active: 10 µM.

With `O=[As](O)(c1ccc(O)cc1)c1ccccc1O`, the Potency entry is “inactive”.

Turning to `C[As](=O)(O)c1cccc(C(=O)O)c1`, the Potency entry was “inactive”.

Consider `O=[N+]([O-])c1ccc(-c2cc([N+](=O)[O-])c(O)c([N+](=O)[O-])c2)cc1`, for which the Potency result was “inactive”.

Take `Cc1ccc(OP(=O)(Nc2ccc([N+](=O)[O-])cn2)Oc2ccc(C)cc2)cc1`: the Potency entry is “inactive”.

As to `COc1ccc(N/C(=N/P(=O)(N2CCOCC2)N2CCOCC2)N2CCOCC2)cc1`, the Potency result was “inactive”.

For the compound `O=[N+]([O-])c1cc(Oc2ccc([N+](=O)[O-])cc2C(F)(F)F)cc([N+](=O)[O-])c1`, the Potency entry is “inactive”.

With `Cc1cc(=O)[nH]c(N[N+](=O)[O-])n1`, the Potency entry was “inactive”.

`COc1ccc2nc(NP(=O)(c3ccccc3)c3ccccc3)sc2c1`: the Potency entry is “inactive”.

Turning to `O=P1(N(CCCl)CCCl)OCCCN1CCCl` (stereo unspecified), the Potency result is “inactive”.

Turning to `O=P1(N(CCCl)CCCl)Nc2ccccc2N1`, the Potency entry was “inactive”.

Consider `Nc1cc(N)c2nonc2c1[N+](=O)[O-]`, for which the Potency entry was “inactive”.

Turning to `CC(C)CC(=O)NC(Sc1ccc(Cl)cc1)C(Cl)(Cl)Cl` (stereo unspecified), the Potency entry was “inactive”.

Consider `Oc1ccccc1CNc1ccccn1`, for which the Potency entry is “inactive”.

With `O=C(NC(Sc1ccncn1)C(Cl)(Cl)Cl)c1ccccc1` (stereo unspecified), the Potency result was “inactive”.

With `NC(=O)c1cc([N+](=O)[O-])cc([N+](=O)[O-])c1N`, the Potency result is “inactive”.

Regarding `C[C@H]1[C@@H](OS(=O)(=O)O)C[C@@H]2C[C@H]([C@@H](O)c3cc(=O)[nH]c(=O)[nH]3)NC3=NC[C@H]1N32`, the Potency is active: 2.24 µM.
